Experimental data from patent US5192507A (priority 1991, dated 1993).

Tested on: acetylcholine receptor (AChR)
Experiment: AChR sensor response (AC impedance) to agent challenge
Type: binding, Electrophorus electricus
Conditions: agent 5 ug/ml

## Alpha-bungarotoxin
  % Change with respect to control sensor: 0%
